Test system: infant intestinal microbiota
Experiment: quad-SHIME infant intestinal microbiota model (SCFA, glycoprofile)
Assay type: cell-based, human infant faecal inoculum
From the text: A faecal sample from a healthy infant born via C-section, exclusively breastfed with no history of antibiotic usage, was used as inoculum to simulate the infant intestinal microbiota in the colon compartments of a quad-SHIME®—a dynamic model of the human gastrointestinal tract comprises 4 SHIME® units running in parallel and each SHIME® unit is composed of 3 reactors simulating the stomach and small intestine, proximal and distal colons.

`C[C@@H]1O[C@@H](O[C@H]2[C@H](O[C@H]3[C@H](O)[C@@H](O)C(O)O[C@@H]3CO)O[C@H](CO)[C@H](O)[C@@H]2O)[C@@H](O)[C@H](O)[C@@H]1O` (stereo partly drawn) [2′-FL, α-L-Fuc-(1→2)-β-D-Gal-(1→4)-D-Glc] was tested, and the “metabolisation by the microbiota (glycoprofile)” value (in the presence of scGOS/lcFOS) was “slowly metabolised across the proximal and distal colon” and the “metabolisation by the microbiota (glycoprofile)” value (supplemented alone) was “not metabolized when supplemented alone”.

From patent US20220110985A1, “NUTRITIONAL COMPOSITION COMPRISING 2'FUCOSYLLACTOSE AND 3'GALACTOSYLLACTOSE” (N.V. Nutricia, priority 2019, published 2022)
